Earlier results on two compounds are cited in US20120283249A1, “Novel compounds which have a protective activity with respect to the action of toxins and of viruses with an intracellular mode of action” (published 2012).

Series [1] addresses ricin (Ricinus communis, UniProt P02879). Particulars: ricin inhibitors.
The target of series [2] is ricin A chain (RTA) N-glycosylase (Ricinus communis, UniProt P02879). As to conditions: read-out: inhibition constant, N-glycosylase activity; enzymatic test.

SMILES strings stand for the structures.

On to `OC[C@H]1O[C@@H](O[C@H]2[C@H](O)[C@@H](O)C(O)O[C@@H]2CO)[C@H](O)[C@@H](O)[C@H]1O` (some centres unmarked), for which the IC50 in series [1] was 740 µM.
Turning to `Nc1nc2ncc(CNc3ccc(C(=O)O)cc3)nc2c(=O)[nH]1`, the Ki in series [2] was 600 µM.
